Reference: PubChem BioAssay AID504582 (Broad Institute, 2011)
This is a selection; strong and weak results do not stand in their true shares. Activity calls are given as the source filed them. Rule as the data show it: active = growth rescue above about 28% (passing the limit was not always enough); inconclusive = no clear call, values can overlap the other calls.

Assay: rescue of yeast from PfHsp40 toxicity, primary screen, S. cerevisiae, ATP luminescence (AID 504582);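 also: yeast W303a lacking pdr1 and pdr3 grown in galactose medium; growth measured after three days at 30 °C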
Conditions: S. cerevisiae expressing PfHsp40, growth rescue, at 12.5 µM, hits give high values

Row | SMILES | growth rescue
1 | CN1CCC(Nc2ccc(F)c(Cl)c2)CC1 | inactive: -1.45%
2 | CCOc1ncccc1C(=O)NCC1(N2CCOCC2)CCCCC1 | inactive: -0.672%
3 | CCCOc1ccc(C(=O)NCC2(N(C)C)CCCCC2)cc1 | inactive: -0.748%
4 | O=C(O)C1(Nc2ccccc2)CCN(Cc2ccccc2)CC1 | inactive: 0.056%
5 | CC(C)(C)OC(=O)N1CCC(Nc2ccccc2)CC1 | inactive: -0.022%
6 | CCC(CO)(C(=O)OC1CN2CCC1CC2)c1ccccc1 (centres undefined) | inactive: -0.876%
7 | COc1cccc(C(=O)N(c2cc(C)cc(C)c2)C2CCN(C(=O)OC(C)(C)C)CC2)c1 | inactive: 0.63%
8 | COc1cc(OC)cc(C(=O)NCC2(N3CCOCC3)CCCCC2)c1 | inactive: -1.48%
9 | CN1CCC(Nc2ccc(Cl)cc2)CC1 | inactive: -0.947%
10 | COc1cc(OC)cc(C(=O)NCC2(N3CCCCC3)CCCCC2)c1 | inactive: 0.343%
11 | CC(=O)N(c1ccccc1)C1CCNCC1 | inactive: -1.92%
12 | Cc1ccc(NC2(C#N)CCN(Cc3ccccc3)CC2)cc1 | inactive: -0.172%
13 | Fc1ccccc1NC1CCN(Cc2ccccc2)CC1 | inactive: -2.07%
14 | Cc1ccc(C(=O)NCC2(N3CCCCC3)CCCCC2)o1 | inactive: 0.138%
15 | CCN1CCC(Nc2cccc(F)c2)CC1 | inactive: 0.426%
16 | Cc1ccccc1NC1(C#N)CCN(Cc2ccccc2)CC1 | inactive: 0.289%
17 | Cn1c(=O)[nH]cc(N(CCCl)CCCl)c1=O | inactive: -0.285%
18 | CN(C)c1ccc(C(=O)NCC2(N3CCCCC3)CCCCC2)cc1 | inactive: -0.055%
19 | O=C(NCC1(N2CCCCC2)CCCCC1)c1ccco1 | inactive: -0.96%
20 | CC(C)(C)OC(=O)N1CCC(N(C(=O)c2ccccc2)c2ccc(Cl)cc2)CC1 | inactive: 0.638%
21 | N#Cc1ccc(C(=O)NCC2(N3CCCCC3)CCCCC2)cc1 | inactive: -0.513%
22 | CCCN1CCC(Nc2cc(OC)cc(OC)c2)CC1 | inactive: 0.668%
23 | Cc1cc(N(CCCl)CCCl)ccc1C=O | inactive: -1.46%
24 | c1ccc(CN2CCC(Nc3ccccc3)CC2)cc1 | inactive: -0.707%
25 | CN(C)C1(CNC(=O)c2cccc(C#N)c2)CCCCC1 | inactive: -0.846%

Row | SMILES | growth rescue
26 | O=C(NCC1(N2CCOCC2)CCCCC1)c1cc(Br)ccc1Cl | inactive: 0.066%
27 | COc1cc(C(=O)NCC2(N3CCOCC3)CCCCC2)cc(OC)c1C | inactive: -1.38%
28 | COc1ccc(C(=O)NCC2(N3CCOCC3)CCCCC2)cc1OC | inactive: 0.516%
29 | N/C(=N\O)c1c(N)no[n+]1[O-] | inactive: 0.62%
30 | CCOC(=O)N1CCC(Nc2ccc(C)cc2)CC1 | inactive: -2.02%
31 | O=C(OC1CN2CCC1CC2)C1c2ccccc2C=Cc2ccccc21 (centres undefined) | inactive: 0.0135%
32 | CN(C)c1cccc(C(=O)NCC2(N3CCCCC3)CCCCC2)c1 | inactive: -0.09%
33 | COc1ccc(CN(CCCl)CCCl)cc1Cl | inactive: -0.677%
34 | CC(C)c1ccc(NC2CCN(C(=O)OC(C)(C)C)CC2)cc1 | inactive: 0.49%
35 | O=C(NCC1(N2CCOCC2)CCCCC1)c1cc(F)c(F)cc1Cl | inactive: -1.43%
36 | COc1cc(OC)c(C(=O)NCC2(N(C)C)CCCCC2)cc1OC | inactive: -1.21%
37 | O=C(NCC1(N2CCCCC2)CCCCC1)c1cncc(Br)c1 | inactive: -0.185%
38 | CN1CCC(Nc2cccc(F)c2)CC1 | inactive: 0.232%
39 | CCCOc1ccc(C(=O)NCC2(N(C)C)CCCCC2)cc1OC | inactive: -0.733%
40 | O=C(NCC1(N2CCCCC2)CCCCC1)c1ccc(OC(F)F)cc1 | inactive: -0.789%
41 | CSc1ccc(C(=O)NCC2(N3CCOCC3)CCCCC2)cc1 | inactive: -0.0255%
42 | O=C(NCC1(N2CCCCC2)CCCCC1)c1cccc([N+](=O)[O-])c1 | inactive: -0.0435%
43 | N#CC1(Nc2ccccc2)CCN(CCc2ccccc2)CC1 | inactive: 0.0265%
44 | CCN1CCC(Nc2ccc(Cl)cc2)CC1 | inactive: -1.28%
45 | O=C(NCC1(N2CCCCC2)CCCCC1)c1cccc(C(F)(F)F)c1 | inactive: -0.216%
46 | COc1ccc(NC2CCN(C(=O)OC(C)(C)C)CC2)cc1 | inactive: -0.982%
47 | CC(C)c1ccc(C(=O)NCC2(N3CCOCC3)CCCCC2)cc1 | inactive: -1.16%
48 | CN1CCN(CCOC(=O)C(O)(c2ccccc2)c2ccccc2)CC1 | inactive: -2.12%
49 | O=C(NCC1(N2CCOCC2)CCCCC1)c1cc(=O)[nH]c2ccccc12 | inactive: 0.285%
50 | COc1cc(C(=O)NCC2(N3CCCCC3)CCCCC2)ccc1OC(F)F | inactive: 0.84%

Row | SMILES | growth rescue
51 | CCOc1ccc(C)cc1CN(CCCl)CCCl | inactive: -0.623%
52 | O=C1CCN(Cc2ccccc2)CC1 | inactive: 0.279%
53 | CCOC(=O)N1CCC(Nc2ccc(F)cc2)CC1 | inactive: -1.42%
54 | COc1ccc(NC2CCN(CCc3ccccc3)CC2)c(OC)c1 | inactive: 0.917%
55 | O=C(NCC1(N2CCCCC2)CCCCC1)c1ccc(F)cc1 | inactive: -0.836%
56 | CCCCOc1ccc(C(=O)NCC2(N3CCOCC3)CCCCC2)cc1 | inactive: -2.17%
57 | O=P1(N(CCCl)CCCl)SCCCS1 | inactive: 1.79%
58 | COc1cc(C(=O)NCC2(N(C)C)CCCCC2)ccc1OC(F)F | inactive: -0.737%
59 | CCOC(=O)N1CCC(Nc2cccc(C)c2)CC1 | inactive: -0.419%
60 | O=C(NCC1(N2CCCCC2)CCCCC1)c1cccs1 | inactive: -0.031%
61 | O=C(NCC1(N2CCCCC2)CCCCC1)c1ccc(=O)[nH]c1 | inactive: 0.311%
62 | COc1ccc(C(=O)NCC2(N3CCCCC3)CCCCC2)c(OC)c1OC | inactive: -1.48%
63 | CC(C)(C)OC(=O)N1CCC(N(C(=O)c2ccccc2)c2ccc(F)cc2)CC1 | inactive: -0.339%
64 | COc1ccc(C(=O)NCC2(N3CCCCC3)CCCCC2)cc1 | inactive: -0.571%
65 | Cc1cccc(NC2(C#N)CCN(Cc3ccccc3)CC2)c1 | inactive: -1.17%
66 | CSc1ccccc1C(=O)NCC1(N2CCCCC2)CCCCC1 | inactive: -0.142%
67 | O=C(NCC1(N2CCOCC2)CCCCC1)c1cc2ccccc2o1 | inactive: -0.571%
68 | Cc1cc(C)cc(N(C(=O)c2ccccc2)C2CCN(C(=O)OC(C)(C)C)CC2)c1 | inactive: 2.27%
69 | O=C(NCC1(N2CCCCC2)CCCCC1)c1ccc(Cl)nc1 | inactive: -0.255%
70 | CCOC(=O)N1CCC(Nc2ccc(OC)cc2)CC1 | inactive: -0.554%
71 | COc1ccc(Cl)cc1C(=O)NCC1(N2CCOCC2)CCCCC1 | inactive: -0.147%
72 | O=C(OC1CN2CCC1CC2)C1c2ccccc2Oc2ccccc21 (centres undefined) | inactive: -1.42%
73 | N#CC1(Nc2ccccc2)CCN(Cc2ccccc2)CC1 | inactive: 1.68%
74 | O=C(NCC1(N2CCCCC2)CCCCC1)c1ccc(Cl)s1 | inactive: -0.513%
